# Data reported in PubChem BioAssay AID720596 (The Scripps Research Institute Molecular Screening Center, 2013).
# The entries are a selection whose mix differs from that of the whole data set. Some salts and complexes are drawn in separate pieces, as the source files them; their charges need not balance. The source made the active and inactive calls. Rule as the data show it: active = inhibition above about 24%; inactive = the rest.
# Target: Major prion protein (Homo sapiens) (UniProt P04156)
# Experiment: reduces human prion protein on the cell surface, primary screen, cell-based, TR-FRET (AID 720596); also: 0% = median of the test wells and 100% = reference compound wells
# Conditions: cell surface PrPC, TR-FRET read-out; at 13.8 µM; hits give high values
row,SMILES,inhibition
1,O=[N+]([O-])c1cc([N+](=O)[O-])c(Nc2nnnn2CCO)c([N+](=O)[O-])c1,inactive: -22.3%
2,CCOC(=O)C(CC)C1=NC(C)(C)Cc2ccccc21.O=[N+]([O-])c1cc([N+](=O)[O-])c(O)c([N+](=O)[O-])c1 (centres undefined),inactive: -12%
3,CN1CCCCC1COC(=O)C1(O)c2ccccc2CCc2ccccc21 (centres undefined),inactive: -9.86%
4,COc1ccccc1OP(C)(=O)Nc1c(C)cccc1C (centres undefined),inactive: 1.61%
5,COc1ccc(-c2ccccn2)cc1.O=[N+]([O-])c1cc([N+](=O)[O-])c(O)c([N+](=O)[O-])c1,inactive: -13.1%
6,CCCOc1ccc(NP(C)(=O)Oc2ccc(Cl)cc2)cc1 (centres undefined),inactive: 1.53%
7,CP(=O)(Nc1ccc(SC(F)(F)F)cc1)Oc1ccccc1 (centres undefined),inactive: 2.51%
8,O=[N+]([O-])c1cc([N+](=O)[O-])c(-n2nnc3ccccc32)c([N+](=O)[O-])c1,inactive: -13.1%
9,CN(Cc1cccnc1)C(=O)COc1ccc(Cl)c(Cl)c1.O=[N+]([O-])c1cc([N+](=O)[O-])c(O)c([N+](=O)[O-])c1,inactive: -12.1%
10,O=[N+]([O-])c1cc([N+](=O)[O-])c(-c2cnn(-c3ccccc3)c2)c([N+](=O)[O-])c1,inactive: -45.6%
11,Cc1nc2ccc3ccccc3c2s1.O=[N+]([O-])c1cc([N+](=O)[O-])c(O)c([N+](=O)[O-])c1,inactive: -27.4%
12,COc1ccccc1OP(C)(=O)Nc1cccc(Br)c1 (centres undefined),inactive: 0.35%
13,CCOC(=O)c1ccc(NP(C)(=O)Oc2cc(C)cc(C)c2)cc1 (centres undefined),inactive: 4.24%
14,Cc1cc(C)cc(OP(C)(=O)Nc2ccc(C)cc2C)c1 (centres undefined),inactive: 0.49%
15,Cc1ccc(C)c(NP(C)(=O)Oc2ccccc2)c1 (centres undefined),inactive: -4.05%
16,Cc1cc(C)cc(OP(C)(=O)Nc2ccccn2)c1 (centres undefined),inactive: 2.58%
17,CP(=O)(Nc1cccc(Br)c1)Oc1ccccc1 (centres undefined),inactive: 14.1%
18,O=C(O)c1cccc(Nc2c([N+](=O)[O-])cc([N+](=O)[O-])cc2[N+](=O)[O-])c1,inactive: -36.6%
19,CC1=NCCc2c1[nH]c1ccccc21.O=[N+]([O-])c1cc([N+](=O)[O-])c(O)c([N+](=O)[O-])c1,inactive: -11.4%
20,O=[N+]([O-])c1cc([N+](=O)[O-])c(Nc2cccnc2)c([N+](=O)[O-])c1,inactive: -28.8%
21,O=[N+]([O-])c1ccc2c(c1)C=Nc1ccccc1O2,inactive: -24.4%
22,CC(C)(C)c1ccc(OP(C)(=O)Nc2ccc(SC(F)(F)F)cc2)cc1 (centres undefined),inactive: -2.69%
23,Cc1cccc(C)c1OP(C)(N)=O (centres undefined),inactive: 4.06%
24,COc1ccccc1OP(C)(=O)Nc1ccc(C)cc1 (centres undefined),inactive: 1.02%
25,Cc1ccc(NP(C)(=O)Oc2ccccc2)c(C)c1 (centres undefined),inactive: 4.59%

row,SMILES,inhibition
1,CCOC(=O)c1ccc(NP(C)(=O)Oc2ccccc2)cc1 (centres undefined),inactive: 1.81%
2,Cc1cc(C)cc(OP(C)(N)=O)c1 (centres undefined),inactive: 7.45%
3,COc1ccccc1OP(C)(=O)Nc1cc(Cl)ccc1C (centres undefined),inactive: 4.99%
4,COc1ccc(OP(C)(=O)Nc2cccc(F)c2)cc1 (centres undefined),inactive: 3.18%
5,CCN(CC)CCCOC(=O)C(O)(c1ccccc1)c1ccccc1,inactive: -0.23%
6,COc1ccccc1-c1ccccn1.O=[N+]([O-])c1cc([N+](=O)[O-])c(O)c([N+](=O)[O-])c1,inactive: -15.6%
7,CP(=O)(Nc1ccc(SC(F)(F)F)cc1)Oc1ccc(Cl)cc1 (centres undefined),inactive: -3.7%
8,Cc1cccc(C)c1OP(C)(=O)Nc1ccc(SC(F)(F)F)cc1 (centres undefined),inactive: 2.19%
9,CP(=O)(Oc1ccccc1)OC(c1ccccc1)C(F)(F)F (centres undefined),inactive: 3.47%
10,CP(=O)(NC(=O)Nc1ccccc1)Oc1ccccc1 (centres undefined),inactive: 3.37%
11,CCc1ccc(OP(C)(=O)N2CCN(c3ccc([N+](=O)[O-])cc3)CC2)cc1 (centres undefined),inactive: -21%
12,Cc1cc(C)cc(OP(C)(=O)Nc2ccc(SC(F)(F)F)cc2)c1 (centres undefined),inactive: -9.87%
13,O=[N+]([O-])c1cc([N+](=O)[O-])c(O)c([N+](=O)[O-])c1.c1ccc(Oc2ccncc2)cc1,inactive: -23.8%
14,CCOC(=O)c1ccc(NP(C)(=O)Oc2ccc(OC)cc2)cc1 (centres undefined),inactive: 6.68%
15,CCOP(C)(=S)SCC(=O)NC(C)C(=O)O (centres undefined),inactive: -5.05%
16,CP(=O)(Nc1ccccn1)Oc1ccc(Cl)cc1 (centres undefined),inactive: -0.88%
17,CP(=S)(Nn1cnnc1)Oc1ccccc1 (centres undefined),inactive: 0.76%
18,CP(=O)(Nc1ccccc1Br)Oc1ccccc1 (centres undefined),inactive: -1.89%
19,COc1ccccc1OP(C)(=O)Nc1ccccc1 (centres undefined),inactive: 3.82%
20,Nc1ccc2c(ccc3cccnc32)n1.O=[N+]([O-])c1cc([N+](=O)[O-])c(O)c([N+](=O)[O-])c1,inactive: -14.5%
21,CCOC(=O)c1ccc(NP(C)(=O)Oc2ccc(Cl)cc2)cc1 (centres undefined),inactive: 8.91%
22,CP(=O)(OC12CC3CC(CC(C3)C1)C2)OC12CC3CC(CC(C3)C1)C2,inactive: -6.84%
23,CCN(CC)CC(O)COC(=O)C(O)(c1ccccc1)C1CCCCC1 (centres undefined),inactive: -2.78%
24,COc1ccc(OP(C)(=O)Nc2ccc(Br)cc2)cc1 (centres undefined),inactive: 8.37%
25,COc1ccccc1OP(C)(=O)Nc1c(C)n(C)n(-c2ccccc2)c1=O (centres undefined),inactive: -4.14%

row,SMILES,inhibition
1,O=C(OCCCN1CCCC1)C(O)(c1ccccc1)C1CCCCC1 (centres undefined),inactive: -0.79%
2,CP(=O)(Oc1ccccc1)N1CCOC1=O (centres undefined),inactive: -2.29%
3,CCc1ccc(OP(C)(=O)Nc2cccnc2)cc1 (centres undefined),inactive: -8.6%
4,COc1ccccc1OP(C)(=O)Nc1ccccc1Br (centres undefined),inactive: 6.46%
5,CC(C)(C)c1ccc(OP(C)(=O)O)cc1,inactive: 2.47%
6,CP(=O)(Nc1ccc(Cl)cc1)Oc1ccc(F)cc1 (centres undefined),inactive: 11.1%
7,CN(C)C(=O)c1c([N+](=O)[O-])cc([N+](=O)[O-])cc1[N+](=O)[O-],inactive: -33.4%
8,COc1ccccc1OP(C)(=O)Nc1ccc(Br)cc1 (centres undefined),inactive: 7.11%
9,COc1ccc(OP(C)(=O)Nc2ccccn2)cc1 (centres undefined),inactive: 1.14%
10,CN(C)CCOC(=O)C(O)(c1ccccc1)C1CCCC1 (centres undefined),inactive: 4.09%
11,Cc1c(NP(C)(=O)Oc2ccc(C(C)C)cc2)c(=O)n(-c2ccccc2)n1C (centres undefined),inactive: -2.42%
12,O=[N+]([O-])c1cc([N+](=O)[O-])c(Nc2ccccn2)c([N+](=O)[O-])c1,inactive: -29.9%
13,CP(=O)(Nc1ccccn1)Oc1ccccc1 (centres undefined),inactive: -2.47%
14,COc1ccccc1OP(C)(=O)Nc1ccc(C)cc1C (centres undefined),inactive: -1.42%
15,CCc1ccc(OP(C)(=O)O)cc1,inactive: -0.23%
16,O=C1C(O)=C([N+](=O)[O-])C(=O)C(O)=C1[N+](=O)[O-],inactive: -9.43%
17,Cc1cc(C)cc(OP(C)(=O)Nc2cccc(C(F)(F)F)c2)c1 (centres undefined),inactive: 0.67%
18,COc1ccccc1OP(C)(=O)Nc1ccc(C)c(C)c1 (centres undefined),inactive: -4.96%
19,COc1ccc(OP(C)(=O)Nc2ccccc2Br)cc1 (centres undefined),inactive: -1.13%
20,CCCCCCCCCCCCCCCC1C[N+](C)(C)CCOP(C)(=O)O1 (centres undefined),inactive: 11.8%
21,CP(=O)(Nc1ccc(Cl)cc1Cl)Oc1ccccc1 (centres undefined),inactive: -0.03%
22,CP(=O)(OCCOc1ccccc1)OCCOc1ccccc1,inactive: 3.16%
23,CCN(CC)CCCNc1ccccc1[N+](=O)[O-].O=[N+]([O-])c1cc([N+](=O)[O-])c(O)c([N+](=O)[O-])c1,inactive: -23.1%
24,CCOC(=O)c1ccc(NP(C)(=O)Oc2ccc(F)cc2)cc1 (centres undefined),inactive: -2.17%
25,COc1ccc(OP(C)(=O)Nc2ccc(SC(F)(F)F)cc2)cc1 (centres undefined),inactive: -2.84%

row,SMILES,inhibition
1,Cc1c([N+](=O)[O-])cc([N+](=O)[O-])c(Br)c1[N+](=O)[O-],inactive: 4.54%
2,CCN(CC)CCCOC(=O)C(O)(c1ccccc1)C1CCCCC1 (centres undefined),inactive: 4.26%
3,CP(=O)(Nc1ccccc1)Oc1ccc(F)cc1 (centres undefined),inactive: -1.13%
4,CCCCCOc1ccc(NP(C)(=O)Oc2ccc(Cl)cc2Cl)cc1 (centres undefined),inactive: -0.44%
5,O=[N+]([O-])c1cc([N+](=O)[O-])c(OC2CCCCC2O)c([N+](=O)[O-])c1 (centres undefined),inactive: -18.2%
6,O=[N+]([O-])c1cc([N+](=O)[O-])c(Nc2ccc(Cl)cc2)c([N+](=O)[O-])c1,inactive: -6.89%
7,CP(=O)(Nc1ccccc1F)Oc1ccccc1 (centres undefined),inactive: -0.69%
8,CC(C)c1ccc(OP(C)(=O)Nc2ccc(SC(F)(F)F)cc2)cc1 (centres undefined),inactive: -2.33%
9,O=C(OC1CN2CCC1CC2)c1ccc([N+](=O)[O-])cc1 (centres undefined),inactive: -19%
10,O=C(OCCN1CCN(CCOCc2ccccc2)CC1)C(O)(c1ccccc1)c1ccccc1,inactive: 7.18%
11,COc1ccc2c(c1O)-c1c(O)c(OC)cc3c1[C@H](C2)[N+](C)(C)CC3.O=[N+]([O-])c1cc([N+](=O)[O-])c([O-])c([N+](=O)[O-])c1[O-],inactive: 5%
12,CP(=O)(Nc1ccc(SC(F)(F)F)cc1)Oc1ccc(F)cc1 (centres undefined),inactive: 9.7%
13,CCOP(C)(=S)SCC(=O)NC(C)(CC)C(=O)O (centres undefined),inactive: -4.86%
14,CCOP(=O)(CC)OCC,inactive: -6.84%
15,CP(=O)(Nc1ccc2c(c1)OCCO2)Oc1ccccc1 (centres undefined),inactive: -2.72%
16,Cc1ccccc1NP(C)(=O)Nc1ccccc1C,inactive: -5.5%
17,O=[N+]([O-])c1cc([N+](=O)[O-])c(C(F)(F)F)c([N+](=O)[O-])c1O,inactive: -13.2%
18,COc1ccc(OP(C)(=O)Nc2cccc(Br)c2)cc1 (centres undefined),inactive: 5.21%
19,CN(C)CCOC(=O)C(O)(c1ccccc1)C1CCCCC1 (centres undefined),inactive: -2.68%
20,COc1ccc(NP(C)(=O)Oc2ccccc2OC)cc1 (centres undefined),inactive: 5.89%
21,O=[N+]([O-])c1ccc(OP2(=O)COCCO2)cc1 (centres undefined),inactive: -5.01%
22,O=[N+]([O-])c1cc([N+](=O)[O-])c(NCC2CCS(=O)(=O)C2)c([N+](=O)[O-])c1 (centres undefined),inactive: -37.4%
23,Cc1cc(-c2cccc3ccccc23)c(C)cn1.O=[N+]([O-])c1cc([N+](=O)[O-])c(O)c([N+](=O)[O-])c1,inactive: -8%
24,Cc1c(C(c2ccc3c(c2)OCO3)c2c(C)n(C)n(-c3ccccc3)c2=O)c(=O)n(-c2ccccc2)n1C.O=[N+]([O-])c1cc([N+](=O)[O-])c(O)c([N+](=O)[O-])c1,inactive: 4.26%
